Source: patent US12514943B2 (priority 2020, dated 2026)
Some entries repeat one wording, which the source may state once for all of them.

Test: Effect of limiting decrease in durability of synthetic adhesives, overall determination
Details: 40° C., 16 hours

SMILES	limiting a decrease in durability of synthetic adhesives (in words)
CC(=O)O [acetic acid]	had no action of limiting a decrease in durability
NCC(=O)O [glycine]	limits a decrease in durability
